Results of unrelated studies side by side (data: NIAID ChemDB).

Common to all: toxicity to cultured cells; cell line: HEL; endpoint: CC50

CCn is the concentration with n% toxicity to the cells. Lines come from different laboratories, so protocols vary.

Nc1nc2c(ncn2COC(CO)CO)c(=O)[nH]1 ; result: 100 µg/mL
Nc1ccn(C[C@@H](CO)OCP(=O)(O)O)c(=O)n1 ; result: 100 µg/mL
CCCCCCCCCCCCc1cc2cn([C@H]3C[C@H](O)[C@@H](CO)O3)c(=O)nc2[nH]1 ; result: >200 µM
CCCCN1CCCC1C12CC3CC(CC(C3)C1)C2 ; result: >50 µg/mL
CCCCCCCCCCCc1cc2cn([C@H]3C[C@H](O)[C@@H](CO)O3)c(=O)nc2o1 ; result: >200 µM
O=C1c2ccccc2NS(=O)(=O)N1COCCO ; result: 160 µg/mL
Nc1ncnc2c1ncn2[C@H]1C[C@@H](O)[C@H](O)[C@@H]1O ; result: 50 µg/mL
CCOc1ccc(-c2cc3cn([C@H]4C[C@H](O)[C@@H](CO)O4)c(=O)nc3o2)cc1 ; result: >200 µM
CC1=CC(CO)(CO)C[C@H]1n1ccc(N)nc1=O ; result: >100 µg/mL
CC(C)(C)OC(=O)C1(Cc2ccccc2)CCN1C(=O)OCc1ccccc1 ; result: 34 µM
O=C1c2ccccc2[C@@]2(O)C3C4C[C@H]5CC(C[C@H]3C5)C4N12 ; result: 73 µg/mL
Cc1ccc(CSc2ccccn2)cc1C ; result: 5.6 µg/mL
Nc1ncnc2c1ncn2C[C@H]1COP(=O)(O)CO1 ; result: 40 µg/mL
O=C1c2ccccc2N(COCCO)S(=O)(=O)N1Cc1ccccc1 ; result: 125 µg/mL
CCCCCc1cc2cn([C@H]3C[C@H](O)[C@@H](CO)O3)c(=O)nc2o1 ; result: >50 µM
O=c1nc2oc(CCCSc3ccccc3)cc2cn1[C@H]1C[C@H](O)[C@@H](CO)O1 ; result: >200 µM
O=S(=O)(Cc1ccccc1)c1c(Cl)ccc[n+]1[O-] ; result: 1.5 µg/mL
CC(C)(C)OC(=O)C1(Cc2ccccc2)CC(=O)N1C(=O)Nc1ccccc1 ; result: 118 µM
O=c1[nH]cnc2c1ncn2[C@@H]1O[C@H](CO)[C@H]1CO ; result: 351 µg/mL
COC(=O)[C@]1(C)CCC[C@]2(C)c3ccc4[nH]cnc4c3CCC12 ; result: 5.1 µg/mL
Nc1nc2c(ncn2COC(CO)CO)c(=O)[nH]1 ; result: 90 µg/mL
CC(C)(C)OC(=O)C1(Cc2ccccc2)CCN1C(=O)OCc1ccccc1 ; result: 34 µM
C#C[C@H](O)C1=C[C@@H](n2cnc3c(N)ncnc32)[C@H](O)[C@@H]1O ; result: >50 µg/mL
CN(C)CC1CCC(C23CC4CC(CC(C4)C2)C3)[C@@H]1c1ccccc1 ; result: >50 µg/mL
NC(=O)c1c(Cl)c(-c2cccnc2)n2c1CCCC2 ; result: 101 µM
CCCCCCCCCCCCc1cc2cn([C@H]3C[C@H](O)[C@@H](CO)O3)c(=O)nc2o1 ; result: >200 µM
O=S(Cc1cccc(C(F)(F)F)c1)c1cccc[n+]1[O-] ; result: 54 µg/mL
CC(C)(C)NC(=O)C1(Cc2ccccc2)CCN1C(=O)OCc1ccccc1 ; result: 36 µM
O=c1nc2oc(CCCCCCCCCOCCCCCl)cc2cn1[C@H]1C[C@H](O)[C@@H](CO)O1 ; result: >200 µM
O=c1c2ncn([C@@H]3O[C@H](CO)[C@@H](O)[C@H]3O)c2[nH]c2nccn12 ; result: >90 µg/mL
Cc1ccc[n+]([O-])c1S(=O)Cc1c(Cl)cccc1Cl ; result: 100 µg/mL
CC1(C)[C@@H](CCO)C[C@H]1n1nnc2c(=O)[nH]c(N)nc21 ; result: >50 µg/mL
Nc1ncnc2c1ncn2C[C@@H](CO)OCP(=O)(O)O ; result: 20 µg/mL
C=C(C)[C@H]1C/C=C2\C(=O)O[C@H](C[C@@]3(C)CC(=O)[C@@H](CC(=O)C1)O3)[C@H]2O ; read by: MTT ; result: 1.9 µg/mL
O=c1[nH]c(=O)n([C@H]2C[C@H](O)[C@@H](CO)O2)cc1/C=C/Br ; result: >200 µM
C[C@H](NC(=O)[C@]1(Cc2ccccc2)CCN1C(=O)OCc1ccccc1)C(=O)N[C@@H](Cc1ccccc1)C(=O)N[C@@H](C)N ; result: >100 µM
O=S(=O)(Cc1c(Cl)cccc1Cl)c1cccc[n+]1[O-] ; result: 15 µg/mL
Cc1c(Br)cc(Br)c2ncc(CSCc3ccc(Cl)c(Cl)c3)n12 ; result: >50 µg/mL
COC(=O)C(c1ccccc1C)S(=O)c1cccc[n+]1[O-] ; result: 4.6 µg/mL
Nc1nc2c(ncn2CC(CO)OCP(=O)(O)O)c(=O)[nH]1 ; result: 10 µg/mL
Cc1ccc[n+]([O-])c1S(=O)(=O)Cc1ccccc1Cl ; result: 21 µg/mL
Nc1nc2c(ncn2COC(CO)CO)c(=O)[nH]1 ; result: 230 µM
CCCCCCc1cc2cn([C@H]3C[C@H](O)[C@@H](CO)O3)c(=O)nc2s1 ; result: >200 µM
O=c1[nH]c(=O)n([C@@H]2O[C@H](CO)[C@@H](O)[C@@H]2O)cc1/C=C/Br ; result: 1000 µM
O=c1c2ncn(COCCO)c2[nH]c2nccn12 ; result: >90 µg/mL
CCCCCCCC/C=C/CCCCCCCC(=O)O ; result: 150 µM
COC(=O)[C@]1(C)CCC[C@]2(C)c3cc4cc[nH]c4cc3CCC12 ; result: 16 µg/mL
Cc1ccc(C)c(C(C)S(=O)c2cccc[n+]2[O-])c1 ; result: 1.6 µg/mL
CNC(=O)[C@@H](C)NC(=O)C1(Cc2ccccc2)CCN1C(=O)OCc1ccccc1 ; result: >200 µM
Cc1cn2c(=O)c3ncn(COC(CO)CO)c3nc2[nH]1 ; result: >90 µg/mL
Cc1ccc(Cl)c(C(C)S(=O)c2cccc[n+]2[O-])c1 ; result: 0.067 µg/mL
Nc1nc(=O)n([C@@H]2O[C@H](CO)[C@@H](O)[C@@H]2F)cc1I ; result: 10 µg/mL
C[C@H](NC(=O)N1C(=O)C[C@@]1(Cc1ccccc1)C(=O)OC(C)(C)C)c1ccccc1 ; result: 184 µM
Nc1ncnc2c1ccn2[C@@H]1C[C@H](O)[C@@H](O)[C@H]1O ; result: 50 µg/mL
COc1cc([C@@H]2c3cc4c(cc3[C@@H](O)[C@H]3COC(=O)[C@]23F)OCO4)cc(OC)c1O ; result: 8.2 µM
CCCCCCOc1ccc(-c2cc3cn([C@H]4C[C@H](O)[C@@H](CO)O4)c(=O)nc3o2)cc1 ; result: >200 µM
O=C1OC(C(O)Cn2cc(F)c(=O)[nH]c2=O)C(OCc2ccccc2)=C1OCc1ccccc1 ; result: 33.4 µg/mL
COC(=O)[C@]1(C)CCC[C@]2(C)c3cc(Br)c4nc[nH]c4c3CCC12 ; result: 3.9 µg/mL
COC(=O)[C@@H](C)NC(=O)C1(Cc2ccccc2)CCN1C(=O)OCc1ccccc1 ; result: 33 µM
CCCOc1ccc(-c2cc3cn([C@H]4C[C@H](O)[C@@H](CO)O4)c(=O)nc3o2)cc1 ; result: >200 µM
O=S(Cc1ccccc1)c1c(Cl)ccc[n+]1[O-] ; result: 3.7 µg/mL
CC1=C[C@H](n2cnc3c(N)ncnc32)C[C@@]1(CO)c1ccccc1 ; result: >100 µg/mL
CCCCCCCCCCc1cc2cn([C@H]3C[C@H](O)[C@@H](CO)O3)c(=O)nc2o1 ; result: >50 µM
CCCCCCCCCc1cc2cn([C@H]3C[C@H](O)[C@@H](CO)O3)c(=O)nc2o1 ; result: >200 µM
Nc1ccn(C[C@H]2COP(=O)(O)CO2)c(=O)n1 ; result: 720 µM
Cc1ccccc1C(c1ccccc1)S(=O)(=O)c1cccc[n+]1[O-] ; result: >50 µg/mL
CC(C)(C)OC(=O)C1(Cc2ccccc2)CC(=O)N1C(=O)OCc1ccccc1 ; result: 36 µM
O=c1nc2oc(CCCOc3ccccc3)cc2cn1[C@H]1C[C@H](O)[C@@H](CO)O1 ; result: >200 µM
C[C@@H](NC(=O)N1CCC1(Cc1ccccc1)C(=O)OC(C)(C)C)c1ccccc1 ; result: 57 µM
C[C@H](NC(=O)N1C(=O)C[C@@]1(Cc1ccccc1)C(=O)O)c1ccccc1 ; result: 187 µM
Nc1nccc2c1ncn2C[C@@H](CO)OCP(=O)(O)O ; result: 90 µM
C[C@H](NC(=O)N1C(=O)C[C@@]1(Cc1ccccc1)C(=O)OC(C)(C)C)c1ccccc1 ; result: 184 µM
CN(C)CC1CCC(C23CC4CC(CC(C4)C2)C3)[C@H]1c1ccccc1 ; result: >50 µg/mL
C=C[C@@H](O)C1=C[C@@H](n2cnc3c(N)ncnc32)[C@H](O)[C@@H]1O ; result: >50 µg/mL
O=c1[nH]c(=O)c2ncn([C@@H]3O[C@H](CO)[C@H]3CO)c2[nH]1 ; result: 327 µg/mL
COc1cc([C@@H]2c3cc4c(cc3[C@@H](Nc3ccc(F)cc3)[C@H]3COC(=O)[C@]23F)OCO4)cc(OC)c1O ; result: 6.1 µM
COC1(OC)CCC2(C)C(CCC3C2CCC2(COC(C)=O)C3CC(O)C23OC3C(OC(C)=O)C(C)C(C)C(C)(C)O)C1 ; read by: MTT ; result: >50 µg/mL
C=CCCCCCCc1cc2cn([C@H]3C[C@H](O)[C@@H](CO)O3)c(=O)nc2o1 ; result: >200 µM
CCCCCCCc1cc2cn([C@H]3C[C@H](O)[C@@H](CO)O3)c(=O)nc2o1 ; result: >50 µM
CC(=O)OCCOCN1C(=O)c2ccccc2NS1(=O)=O ; result: >200 µg/mL
C#CCCCCc1cc2cn([C@H]3C[C@H](O)[C@@H](CO)O3)c(=O)nc2o1 ; result: >200 µM
Nc1ccn(C[C@@H](CO)OCP(=O)(O)O)c(=O)n1 ; result: 360 µM
CC1(C)[C@@H](CCO)C[C@H]1n1nnc2c(N)ncnc21 ; result: 34 µg/mL
C=CCCCc1cc2cn([C@H]3C[C@H](O)[C@@H](CO)O3)c(=O)nc2o1 ; result: >200 µM
Cc1ccc(C)c(CS(=O)(=O)c2cccc[n+]2[O-])c1 ; result: 39 µg/mL
COc1cc([C@@H]2c3cc4c(cc3[C@@H](Nc3ccc(N)cc3)[C@H]3COC(=O)[C@]23F)OCO4)cc(OC)c1O ; result: 7.5 µM
CCCCCCCCCCc1cc2cn([C@H]3C[C@H](O)[C@@H](CO)O3)c(=O)nc2s1 ; result: 54 µM
CCCc1ccc(OCCCc2cc3cn([C@H]4C[C@H](O)[C@@H](CO)O4)c(=O)nc3o2)cc1 ; result: 165 µM
Nc1nc2c(ncn2COCCO)c(=O)[nH]1 ; result: >200 µg/mL
Cc1ccc(C)c(C(C)S(=O)(=O)c2c(C)ccc[n+]2[O-])c1 ; result: 38 µg/mL
O=C1OC(C(O)Cn2cc(C(F)(F)F)c(=O)[nH]c2=O)C(OCc2ccccc2)=C1OCc1ccccc1 ; result: 31.7 µg/mL
CC(=O)OC(C(C)C(C)C(C)(C)O)C1OC12C(O)CC1C3CCC4CC(=O)CCC4C3CCC12CO ; read by: MTT ; result: >50 µg/mL
Cc1ccc(-c2cc3cn([C@H]4C[C@H](O)[C@@H](CO)O4)c(=O)nc3o2)cc1 ; result: >200 µM
C1CCC2(CC1)CCCN2CC12CC3CC(CC(C3)C1)C2 ; result: >50 µg/mL
Cc1ccc(CSCc2cnc3c(Br)cc(Br)c(C)n23)cc1 ; result: >50 µg/mL
Cc1ccc[n+]([O-])c1S(=O)(=O)C(C)c1cccc([N+](=O)[O-])c1C ; result: 96 µg/mL
C#CCCCCCCc1cc2cn([C@H]3C[C@H](O)[C@@H](CO)O3)c(=O)nc2o1 ; result: >200 µM
CC1(C)[C@@H](CCO)C[C@H]1n1cnc2c(N)nc(N)nc21 ; result: >50 µg/mL
O=c1[nH]c(=O)n([C@@H]2O[C@H](CO)[C@@H](O)[C@@H]2O)cc1/C=C/Br ; result: >200 µg/mL
CC(C)c1cc(CS(=O)(=O)c2cccc[n+]2[O-])c(C(C)C)cc1Br ; result: 4.4 µg/mL
Nc1nc2c(ncn2COCCO)c(=O)[nH]1 ; result: >400 µM
Cc1ccccc1C(C(N)=O)S(=O)c1cccc[n+]1[O-] ; result: >20 µg/mL
Nc1ccn(C[C@@H](CO)OCP(=O)(O)O)c(=O)n1 ; result: 351 µM
[O-][n+]1ccccc1SCc1ccccc1 ; result: >50 µg/mL
CCCCCCCCCCc1cc2cn([C@H]3C[C@H](O)[C@@H](CO)O3)c(=O)nc2o1 ; result: >50 µM
O=S(=O)(Cc1ccc(F)cc1)c1cccc[n+]1[O-] ; result: 24 µg/mL
Cc1c(Br)cc(Br)c2ncc(CSCc3ccc(F)cc3)n12 ; result: >50 µg/mL

The last 13 rows once more:

Cc1ccc(CSCc2cnc3c(Br)cc(Br)c(C)n23)cc1 ; result: >50 µg/mL
Cc1ccc[n+]([O-])c1S(=O)(=O)C(C)c1cccc([N+](=O)[O-])c1C ; result: 96 µg/mL
C#CCCCCCCc1cc2cn([C@H]3C[C@H](O)[C@@H](CO)O3)c(=O)nc2o1 ; result: >200 µM
CC1(C)[C@@H](CCO)C[C@H]1n1cnc2c(N)nc(N)nc21 ; result: >50 µg/mL
O=c1[nH]c(=O)n([C@@H]2O[C@H](CO)[C@@H](O)[C@@H]2O)cc1/C=C/Br ; result: >200 µg/mL
CC(C)c1cc(CS(=O)(=O)c2cccc[n+]2[O-])c(C(C)C)cc1Br ; result: 4.4 µg/mL
Nc1nc2c(ncn2COCCO)c(=O)[nH]1 ; result: >400 µM
Cc1ccccc1C(C(N)=O)S(=O)c1cccc[n+]1[O-] ; result: >20 µg/mL
Nc1ccn(C[C@@H](CO)OCP(=O)(O)O)c(=O)n1 ; result: 351 µM
[O-][n+]1ccccc1SCc1ccccc1 ; result: >50 µg/mL
CCCCCCCCCCc1cc2cn([C@H]3C[C@H](O)[C@@H](CO)O3)c(=O)nc2o1 ; result: >50 µM
O=S(=O)(Cc1ccc(F)cc1)c1cccc[n+]1[O-] ; result: 24 µg/mL
Cc1c(Br)cc(Br)c2ncc(CSCc3ccc(F)cc3)n12 ; result: >50 µg/mL